Experimental data published in article PMC13303869.
Construct, isoform or probe ends are uncertain for at least one entry. For some assays here: At least one verdict was read from the data and is not stated in words by the source.

Columns and labels:
[1] = test system: AbaAlkX WT; experiment: EMSA; settings: interstrand crosslink by 8-atom nitrogen mustard analog (NM8) between guanines (G14 of strand 1 and G11 of strand 2, 5'-GAC/GTC site); both are 2'-fluoro-deoxyguanosine; EMSA: 4 µL protein + 4 µL 20 nM DNA, 25 mM Tris pH 7.5, 100 mM NaCl, 5% glycerol, 0.1 mM EDTA, 1 mM TCEP, room temperature, 20 min; 5% native TBE gel; recombinant protein; protein details: His6 tag removed with 3C protease (pBG102); label: 5'-Cy5 on strand 1, 5'-FAM on strand 2
[2] = test system: AbaAlkX Y300F; experiment: EMSA; settings: recombinant protein; protein details: His6 tag removed with 3C protease (pBG102); label: 5'-Cy5 on strand 1, 5'-FAM on strand 2

Sequence: TTTATTTTTATTTGACTTTTATTTTT (double strand) [2F-NM8-ICL DNA]
- binding result [1]: binds
- binding result [2]: binds
